PubChem BioAssay AID624099 – ICCB-Longwood – 2012

Assay: 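Human genes that papillomavirus E2 requires to repress the HPV18 LCR promoter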 (primary screen)
System: human C33A cervical carcinoma cells (HPV-negative) stably expressing BPV1 E2 and an HPV18 LCR luciferase reporter
Reagents: siRNA pool against human genes, 40 nM
Duration: 72 h
Read-out: 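Per-well luciferase luminescence, z-scored on each plate against the plate mean and SD with control wells left out, then averaged across three replicate plates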
Direction: mean z-score and z-score: higher = stronger reporter signal, weaker E2 silencing
Rule for the call: 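Mean z ≥ 2 together with z ≥ 2 in two or more of the three replicates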
In all, the deposit lists about 21,000 reagents; this is a part drawn at random. In the full data, 497 (2.4%) got an active call. 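Higher z means weaker E2 silencing; only reporter increases were scored, and knock-downs that hurt cell survival may mask genuine repressor factors.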

gene	mean z-score	z-score, replicate A	z-score, replicate B	z-score, replicate C	Outcome
ZNF749	0.02	0.05	-0.03	0.03	inactive
LOC389250 (retired record)	-1	-0.3	-1.42	-1.27	inactive
WDR83	-0.15	-0.42	-0.06	0.01	inactive
ZFP1	-0.1	-0.35	0.33	-0.27	inactive
GPR87	-0.46	-0.66	-0.22	-0.48	inactive
KGD4	1.11	0.82	1.25	1.26	inactive
FOXN2	0.04	0.05	-0.2	0.27	inactive
UVRAG	-0.32	-0.13	-0.36	-0.48	inactive
ICAM3	0.21	0.17	0.01	0.46	inactive
GPX7	-1.17	-0.9	-1.19	-1.42	inactive
KDM3A	-0.8	-1.3	-0.8	-0.3	inactive
RFX5	-1.26	-1.33	-1.25	-1.18	inactive
HELB	1.07	0.49	1.37	1.34	inactive
DYNC1I1	0.14	0.25	0.1	0.09	inactive
PIP4P1	0.8	0.79	0.65	0.97	inactive
C8orf33	1.25	1.62	0.99	1.15	inactive
RASD2	1.03	0.81	1.37	0.91	inactive
KLHDC9	-1.6	-1.74	-1.56	-1.5	inactive
GLI4	-0.9	-0.85	-1.2	-0.64	inactive
ZNF236	-0.33	-0.24	-0.38	-0.38	inactive
ERCC6L	-1.32	-1.3	-1.54	-1.13	inactive
LOC389173 (retired record)	1.9	2.42	1.45	1.85	inactive
NPIPA1	0.08	-0.21	0.16	0.29	inactive

2 successive reagents from above, for reference:
gene	mean z-score	z-score, replicate A	z-score, replicate B	z-score, replicate C	Outcome
ERCC6L	-1.32	-1.3	-1.54	-1.13	inactive
LOC389173 (retired record)	1.9	2.42	1.45	1.85	inactive
